## Positions that govern dimerization of the HIV-1 5' RNA

Source: Ye et al. 2022 (doi:10.1038/s41594-022-00746-2), supplementary data.

RNA: 5' end of the HIV-1 NL4-3 genome, made in vitro. Positions 1-437 read:
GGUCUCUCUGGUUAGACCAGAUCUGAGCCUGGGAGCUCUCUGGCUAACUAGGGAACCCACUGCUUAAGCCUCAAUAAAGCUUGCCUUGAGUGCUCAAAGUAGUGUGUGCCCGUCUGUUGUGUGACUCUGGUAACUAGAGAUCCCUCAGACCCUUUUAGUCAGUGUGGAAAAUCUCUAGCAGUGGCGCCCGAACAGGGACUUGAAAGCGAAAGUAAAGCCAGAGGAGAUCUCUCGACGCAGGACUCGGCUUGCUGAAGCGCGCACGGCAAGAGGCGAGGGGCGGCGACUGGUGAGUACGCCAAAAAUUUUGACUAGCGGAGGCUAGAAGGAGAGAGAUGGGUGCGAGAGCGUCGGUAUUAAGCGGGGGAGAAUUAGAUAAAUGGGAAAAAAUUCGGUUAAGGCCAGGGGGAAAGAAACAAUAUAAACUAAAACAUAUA

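Randomly mutated transcripts starting with one, two or three G (1G, 2G, 3G), capped or uncapped, were folded for 30 min at 37 °C. Monomer and dimer bands were cut from native gels after folding in high salt (300 mM KCl, 5 mM MgCl2) or low salt (40 mM KCl, 0.1 mM MgCl2). Mutation frequencies in the two bands give Kdimer.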

Values are log2 Kdimer, the median over the changes at each position: higher means that changes there hinder dimer formation, below 0 that they favour it. One numbering serves 1G, 2G and 3G. A position is written with its base.

position	2G capped high-salt	2G capped low-salt	2G uncapped high-salt	2G uncapped low-salt
G325	0.32	0.61	0.57	0.71
A326	-0.15	-0.02	0.00	-0.11
A327	0.09	0.19	0.12	0.19
G328	-0.02	-0.20	0.01	-0.17
G329	0.08	0.04	0.25	-0.03
A330	0.15	0.47	0.17	0.28
G331	0.04	-0.19	0.06	-0.09
A332	-0.03	0.46	0.10	0.47
G333	0.14	-0.24	0.06	-0.20
A334	-0.01	0.39	0.08	0.49
G335	-0.09	0.31	-0.06	0.43
A336	-0.08	0.38	-0.09	0.51
U337	0.05	0.10	0.09	-0.01
G338	0.03	0.06	-0.15	0.34
G339	0.08	0.51	0.13	0.58
G340	-0.15	0.21	-0.09	0.29
U341	-0.05	0.23	0.08	0.35
G342	0.01	-0.06	0.10	0.16
C343	-0.09	0.17	0.24	0.29
G344	-0.15	-0.38	-0.15	-0.18
A345	0.16	0.19	0.16	0.00
G346	-0.13	0.20	0.03	0.17
A347	0.37	0.23	0.50	0.34
G348	-0.31	-0.33	-0.37	-0.24
C349	-0.25	-0.06	-0.32	-0.02
G350	-0.05	0.18	-0.20	0.30
U351	0.10	0.09	0.09	0.10
C352	0.21	-0.01	0.20	-0.16
G353	-0.02	0.30	0.03	0.28
G354	-0.14	-0.63	-0.12	-0.47
U355	0.12	0.00	0.17	0.00
A356	0.13	-0.05	-0.03	-0.12
U357	0.07	0.00	0.01	-0.01
U358	0.03	-0.18	-0.01	-0.08
A359	0.10	-0.01	-0.02	0.08
A360	0.00	-0.35	0.00	-0.08
G361	0.02	0.08	0.10	-0.07
C362	0.25	0.16	0.21	0.15
G363	0.11	0.26	0.21	0.28
G364	-0.16	-0.20	0.04	-0.08
G365	-0.02	0.05	0.03	0.16
G366	0.12	0.02	0.05	0.26
G367	0.15	0.18	0.31	0.23
A368	0.22	-0.07	0.14	0.10
G369	0.10	0.11	0.17	0.11

A selection of 4 entries from above:

position,2G capped high-salt,2G capped low-salt,2G uncapped high-salt,2G uncapped low-salt
A330,0.15,0.47,0.17,0.28
G335,-0.09,0.31,-0.06,0.43
U357,0.07,0.00,0.01,-0.01
G367,0.15,0.18,0.31,0.23